Pooled drug test results. Numbers come from NIAID ChemDB, via PubChem.

Common to all: whole-cell or culture tests; species: Mycobacterium avium complex; measure: MIC

Lines come from different laboratories, so protocols vary.

| compound | strain | value |
|---|---|---|
| CCCNC(=O)OCCN=c1ssc2ccccc12 | AN1 | 4 µg/mL |
| CCCCN(C)CNC(=O)c1cnccn1 | ATCC49601 | >128 µg/mL |
| CCNC(=O)O[C@H]1C(O[C@@H]2[C@@H](C)[C@H](O[C@H]3C[C@@](C)(OC)[C@@H](OC(C)=O)[C@H](C)O3)[C@@H](C)C(=O)O[C@H](CC)[C@@](C)(O)[C@H](O)[C@@H](C)/C(=N/OCCCC3CCCCC3)[C@H](C)CC2(C)O)O[C@H](C)C[C@@H]1N(C)C | 20034 | >50 µg/mL |
| CCCCN(CCCC)CNC(=O)c1cnccn1 | ATCC49601 | >128 µg/mL |
| CCNC(=O)OCCn1sc2ccccc2c1=S | AN3 | 4 µg/mL |
| CC/C=C/CCNC(=O)O[C@H]1C(O[C@@H]2[C@@H](C)[C@H](O[C@H]3C[C@@](C)(OC)[C@@H](OC(C)=O)[C@H](C)O3)[C@@H](C)C(=O)O[C@H](CC)[C@@](C)(O)[C@H](O)[C@@H](C)/C(=N/OCCCC3CCCCC3)[C@H](C)CC2(C)O)O[C@H](C)C[C@@H]1N(C)C | 20034 | 0.1 µg/mL |
| CN(C)C/C=C(/c1ccc(-c2ccc(Br)cc2)cc1)c1ccc([N+](=O)[O-])cc1 | - | 73 µg/mL |
| O[C@@H](c1cc2ccc(C(F)(F)F)cc2c2cc(C(F)(F)F)ccc12)[C@@H]1CCCCN1 | 5 clinical isolates | 2–4 µg/mL |
| CCCCCCCCOC1O[C@@H](C(O)COC2O[C@@H](C(O)CO)[C@H](O)[C@H]2O)[C@H](O)[C@H]1O | NJ168 | >128 µg/mL |
| CCCN(CCC)CNC(=O)c1cnccn1 | 101 | 128 µg/mL |
| CCNC(=O)OCCn1sc2ccccc2c1=O | AN2 | >32 µg/mL |
| CCCCCNC(=O)O[C@H]1C(O[C@@H]2[C@@H](C)[C@H](O[C@H]3C[C@@](C)(OC)[C@@H](OC(C)=O)[C@H](C)O3)[C@@H](C)C(=O)O[C@H](CC)[C@@](C)(O)[C@H](O)[C@@H](C)/C(=N/OCCCC3CCCCC3)[C@H](C)CC2(C)O)O[C@H](C)C[C@@H]1N(C)C | 20092 | 0.1 µg/mL |
| O=C(NCN1CCOCC1)c1cnccn1 | ATCC49601 | >128 µg/mL |
| CN(C)CC=C(c1ccc(Br)cc1)c1ccc(-c2ccc(Br)cc2)cc1 | - | 34 µg/mL |
| CCCCCCCCO[C@@H]1O[C@@H](C(CO[C@@H]2O[C@@H](C(COC(C)=O)OC(C)=O)[C@H](OC(C)=O)[C@H]2OC(C)=O)OC)[C@H](OC)[C@H]1OC | NJ168 | >128 µg/mL |
| COc1cc(NC(C)CCCN)c2nccc(/C=C\C3CCCCC3)c2c1 | 5 clinical isolates | >16 µg/mL |
| CCCCN(CC)CNC(=O)c1cnccn1 | 101 | 128 µg/mL |
| CCCCCCCCO[C@@H]1O[C@@H](C(COCc2ccccc2)O[C@@H]2O[C@@H](C(COC(C)=O)OC(C)=O)[C@H](OC(C)=O)[C@H]2OC(C)=O)[C@H](OCc2ccccc2)[C@H]1OCc1ccccc1 | NJ3404 | >128 µg/mL |
| CC(C)(C)NC(=O)OCCn1sc2ccccc2c1=S | AN3 | 2 µg/mL |
| CN(C)C/C=C(/c1ccccc1)c1ccc(-c2ccc(Br)cc2)cc1 | - | 40 µg/mL |
| COCc1ccnc2c(NC(C)CCCN)cc(OC)c(Cc3cccc(C(F)(F)F)c3)c12 | 5 clinical isolates | >16 µg/mL |
| O=c1c2ccccc2sn1CCO | ISS 486 | 32 µg/mL |
| CC(C)N=C(N)/N=C(\N)NOCCCOc1cc(Cl)c(Cl)cc1Cl | GRE | 32 µg/mL |
| Cc1ccc(/C(=C\CN(C)C)c2ccc(-c3ccc(Br)cc3)cc2)cc1 | - | 79 µg/mL |
| CO[C@H]1/C=C/O[C@@]2(C)Oc3c(C)c(O)c4c(=O)c(c5oc6cc(N7CCN(CC(C)C)CC7)cc(=O)c6nc5c4c3=C2O)NC(=O)/C(C)=C\C=C\[C@H](C)[C@H](O)[C@@H](C)[C@@H](O)[C@@H](C)[C@H](OC(C)=O)[C@@H]1C | N-978 (HIV+) | 0.0313 µg/mL |
| CCCCNC(=O)OCCN=c1ssc2ccccc12 | AN3 | 2 µg/mL |
| CCCCCCCCOC1OC([C@H](CO)OC2O[C@@H](C(O)CO)[C@H](O)[C@H]2O)[C@H](O)[C@H]1O | NJ168 | >128 µg/mL |
| OCCN=c1ssc2ccccc12 | ISS 486 | 4 µg/mL |
| CCN(CC)CNC(=O)c1cnc(N(CC)CC)cn1 | 101 | >128 µg/mL |
| CCCNC(=O)OCCn1sc2ccccc2c1=O | ISS 486 | 16 µg/mL |
| N[C@@H]1CN(c2c(F)cc3c(=O)c(C(=O)O)cn([C@@H]4C[C@@H]4F)c3c2Cl)CC12CC2 | 101 | 8 µg/mL |
| O=C(NCN1CCCC1)c1cnccn1 | ATCC49601 | >128 µg/mL |
| O[C@@H](c1cc(C(F)(F)F)nc2c(C(F)(F)F)cccc12)[C@@H]1CCCCN1 | 5 clinical isolates | >16 µg/mL |
| OCCn1sc2ccccc2c1=S | ISS 486 | 4 µg/mL |
| CC[C@H]1OC(=O)[C@H](C)[C@@H](O[C@H]2C[C@@](C)(OC)[C@@H](OC(C)=O)[C@H](C)O2)[C@H](C)[C@@H](OC2O[C@H](C)C[C@H](N(C)C)[C@H]2OC(N)=O)C(C)(O)C[C@@H](C)/C(=N\OCCCC2CCCCC2)[C@H](C)[C@@H](O)[C@]1(C)O | 20045 | 1.56 µg/mL |

The first 5 rows once more:

compound	strain	value
CCCNC(=O)OCCN=c1ssc2ccccc12	AN1	4 µg/mL
CCCCN(C)CNC(=O)c1cnccn1	ATCC49601	>128 µg/mL
CCNC(=O)O[C@H]1C(O[C@@H]2[C@@H](C)[C@H](O[C@H]3C[C@@](C)(OC)[C@@H](OC(C)=O)[C@H](C)O3)[C@@H](C)C(=O)O[C@H](CC)[C@@](C)(O)[C@H](O)[C@@H](C)/C(=N/OCCCC3CCCCC3)[C@H](C)CC2(C)O)O[C@H](C)C[C@@H]1N(C)C	20034	>50 µg/mL
CCCCN(CCCC)CNC(=O)c1cnccn1	ATCC49601	>128 µg/mL
CCNC(=O)OCCn1sc2ccccc2c1=S	AN3	4 µg/mL

Blank or dashed fields: not listed here. a–b is a range or a potency band.